Anti-infective test results gathered from many reports (values: NIAID ChemDB through PubChem).

Shared fields: enzyme or target tests; agent: HIV-1; target: Reverse transcriptase; method: nucleotide incorporation / radiometric; endpoint: fold resistance

An empty or dashed field is not shown. Rows are shuffled and stem from different studies. Fold resistance has wild type as its base. a–b is a range or a potency band.

| structure | strain | changes | value |
|---|---|---|---|
| CCOC(=O)CN(C)C(=O)c1ccc(NC(=O)CSc2nnc(Br)n2-c2ccc(C3CC3)c3ccccc23)c(Cl)c1 | - | RT-Y188L | >1 |
| CCN1c2ncc(CCOc3ccc(-n4cc(C(=O)O)nn4)cc3C)cc2C(=O)N(C)c2cccnc21 | IIIB | RT-K103N Y181C | >1 |
| CCOC(=O)N1CCC(NC(=O)c2ccc(NC(=O)CSc3nnc(Br)n3-c3ccc(CC)c4ccccc34)c(Cl)c2)CC1 | - | RT-Y188L | >2 |
| CCN1c2ncc(CCOc3ccc(CCC(=O)O)c4c3CCCC4)cc2C(=O)N(C)c2cccnc21 | - | RT-Y188L | >10 |
| CCN1c2ncc(CCOc3ccc(-c4cc(C(=O)O)c[n+]([O-])c4)cc3C)cc2C(=O)N(C)c2cccnc21 | IIIB | RT-K103N Y181C | 1 |
| CCN1c2ncc(CCOc3ccc(C(=O)O)c4c3CCN(C(=O)OC(C)(C)C)C4)cc2C(=O)N(C)c2cccnc21 | - | RT-K103N Y181C | 1–10 |
| CCN1c2ncc(CCOc3cccc4c3ccc[n+]4[O-])cc2C(=O)Nc2c(C)cc(Cl)nc21 | - | RT-K103N Y181C | 13 |
| CNS(=O)(=O)c1ccc(NC(=O)CSc2nnc(C(F)F)n2-c2ccc(C)c3c2CCCC3)c(Cl)c1 | - | RT-Y188L | >2 |
| CCN1c2ncc(CCOc3ccc(C(=O)NC(C)(C)CC(=O)O)cc3C)cc2C(=O)N(C)c2cccnc21 | IIIB | RT-K103N Y181C | >2 |
| Cc1cc(S(N)(=O)=O)ccc1NC(=O)CSc1nnc(C)n1-c1ccc(C)c2c1CCCC2 | - | RT-Y188L | >2 |
| CCN1c2ncc(CCOc3ccc4cc(CC(=O)O)ccc4c3)cc2C(=O)N(C)c2cccnc21 | - | RT-V106A | 1–10 |
| Cc1cc(C2CC2)cc(Cl)c1-n1c(Br)nnc1SCC(=O)Nc1ccc(S(N)(=O)=O)cc1Cl | - | RT-Y188L | >2 |
| CCN1c2ncc(CCOc3ccc(C(=O)NCC4(C(=O)O)CCCC4)cc3C)cc2C(=O)N(C)c2cccnc21 | IIIB | RT-K103N Y181C | >2 |
| COc1ccc2c(C3CC3)ccc(-n3c(Br)nnc3SCC(=O)Nc3ccc(S(=O)(=O)O)cc3Cl)c2c1 | - | RT-Y188L | >1 |
| CCN1c2ncc(CCOc3ccc(C(=O)O)c4ccccc34)cc2C(=O)N(C)c2ccc(F)nc21 | - | RT-K103N Y181C | 1–10 |
| CCN1c2ncc(CCOc3ccc(C(=O)N=c4ccccn4O)cc3C)cc2C(=O)N(C)c2cccnc21 | IIIB | RT-K103N Y181C | 1 |
| CCN1c2ncc(CCOc3ccc(CC(=O)O)c4ccccc34)cc2C(=O)N(C)c2cccnc21 | - | RT-Y188L | >10 |
| CCN1c2ncc(CCOc3ccc(-c4cnc[nH]4)cc3C)cc2C(=O)N(C)c2cccnc21 | IIIB | RT-K103N Y181C | 1 |

Repeating the first 2 entries:

| structure | strain | changes | value |
|---|---|---|---|
| CCOC(=O)CN(C)C(=O)c1ccc(NC(=O)CSc2nnc(Br)n2-c2ccc(C3CC3)c3ccccc23)c(Cl)c1 | - | RT-Y188L | >1 |
| CCN1c2ncc(CCOc3ccc(-n4cc(C(=O)O)nn4)cc3C)cc2C(=O)N(C)c2cccnc21 | IIIB | RT-K103N Y181C | >1 |